Reference: ChEMBL document CHEMBL3045818, “Two novel trichothecenes from Myrothecium roridum” (2007)

Tested on: Pyricularia oryzae
Test: Antifungal activity against Magnaporthe oryzae assessed as concentration required to cause morphological changes after 16 hr by inverted microscopic analysis relative to control

| Compound | Activity |
| --- | --- |
| CC1=C[C@H]2O[C@@H]3C[C@H]4OC(=O)/C=C\C=C\[C@@H](O)[C@@H](C)OCC/C(C)=C/C(=O)OCC2(CC1)[C@]4(C)[C@]31CO1 (some centres not stated) | 6.2 µM/L |
| CC1=C[C@H]2O[C@@H]3C[C@H]4OC(=O)/C=C\C=C\[C@@H](O)[C@H](C)OCC/C(C)=C/C(=O)OCC2(CC1)[C@]4(C)[C@]31CO1 (some centres not stated) | 7.9 µM/L |
